Assay results taken from PubChem BioAssay AID624483 (NMMLSC, 2012).
This is a selection; strong and weak results do not stand in their true shares. Calls of active or inactive are those of the source. Rule as the data show it: active = fluorescence intensity above about 16000; inconclusive = no clear call, values can overlap the other calls; inactive = below that.

Test: counter-screen for toxin protease inhibitors: compound fluorescence, primary screen, artefact control for toxin protease inhibitor project, biochemical, multiplex microsphere, HTS (AID 624483); also: test concentration not given here
Details: compound autofluorescence counterscreen, microsphere flow cytometry; hits give high values

With `O=C(NCC1(N2CCCCC2)CCCCC1)c1ccc(OC(F)F)cc1` as the molecule, how does the fluorescence intensity read?
The fluorescence intensity was inactive: 11200.

Which fluorescence intensity does the source give for `COc1ccc(NC2CCN(C(=O)OC(C)(C)C)CC2)cc1` here?
Its fluorescence intensity is inactive: 4360.

For `CN1CCN(CCOC(=O)C(O)(c2ccccc2)c2ccccc2)CC1`, which fluorescence intensity is on record?
The fluorescence intensity was inactive: 8670.

Which fluorescence intensity does the source give for `CCCCn1nnnc1C(c1cccc2ccccc12)N1CCC(n2c(=O)[nH]c3ccccc32)CC1` (configuration not stated) here?
Its fluorescence intensity is inactive: 5620.

Which fluorescence intensity does the source give for `O=C(NCC1(N2CCOCC2)CCCCC1)c1cc(=O)[nH]c2ccccc12` here?
Its fluorescence intensity is inactive: 2400.

For `COc1cc(C(=O)NCC2(N3CCCCC3)CCCCC2)ccc1OC(F)F`, which fluorescence intensity is on record?
Its fluorescence intensity is inactive: 13300.

For `O=C(NCC1(N2CCCCC2)CCCCC1)c1cccc(C(F)(F)F)c1`, which fluorescence intensity is on record?
The fluorescence intensity was inactive: 6010.

Which fluorescence intensity does the source give for `CC(C)(C)OC(=O)N1CCC(N(C(=O)c2ccccc2)c2ccc(Cl)cc2)CC1` here?
The fluorescence intensity was inactive: 3560.

Which fluorescence intensity does the source give for `N#Cc1ccc(C(=O)NCC2(N3CCCCC3)CCCCC2)cc1` here?
Its fluorescence intensity is inactive: 4240.

Which fluorescence intensity does the source give for `CC(C)(C)n1nnnc1C(c1cccc2ccccc12)N1CCC(n2c(=O)[nH]c3ccccc32)CC1` (configuration not stated) here?
The fluorescence intensity was inactive: 5950.

With `c1ccc(CN2CCC(Nc3ccccc3)CC2)cc1` as the molecule, how does the fluorescence intensity read?
Its fluorescence intensity is inactive: 5240.

With `Cc1cc(N(CCCl)CCCl)ccc1C=O` as the molecule, how does the fluorescence intensity read?
The fluorescence intensity was inactive: 3290.

Which fluorescence intensity does the source give for `CCCN1CCC(Nc2cc(OC)cc(OC)c2)CC1` here?
The fluorescence intensity was inactive: 2950.

For `O=c1[nH]c2ccccc2n1C1CCN(C(c2ccccc2)c2nnnn2C2CCCC2)CC1` (configuration not stated), which fluorescence intensity is on record?
The fluorescence intensity was inactive: 4310.

With `CN(C)C1(CNC(=O)c2cccc(C#N)c2)CCCCC1` as the molecule, how does the fluorescence intensity read?
Its fluorescence intensity is inactive: 2980.

With `COc1ccc(C(=O)NCC2(N3CCOCC3)CCCCC2)cc1OC` as the molecule, how does the fluorescence intensity read?
The fluorescence intensity was inactive: 3330.

For `O=c1[nH]c2ccccc2n1C1CCN(C(c2ccnc3ccccc23)c2nnnn2C2CCCC2)CC1` (configuration not stated), which fluorescence intensity is on record?
Its fluorescence intensity is inactive: 5740.

Which fluorescence intensity does the source give for `O=c1[nH]c2ccccc2n1C1CCN(C(c2cccs2)c2nnnn2C2CCCCC2)CC1` (configuration not stated) here?
Its fluorescence intensity is inactive: 5820.

For `O=C(NCC1(N2CCOCC2)CCCCC1)c1cc(Br)ccc1Cl`, which fluorescence intensity is on record?
Its fluorescence intensity is inactive: 6830.

For `CCCCn1nnnc1C(c1ccccc1)N1CCC(n2c(=O)[nH]c3ccccc32)CC1` (configuration not stated), which fluorescence intensity is on record?
Its fluorescence intensity is inactive: 5430.

With `COc1cc(C(=O)NCC2(N3CCOCC3)CCCCC2)cc(OC)c1C` as the molecule, how does the fluorescence intensity read?
The fluorescence intensity was inactive: 3830.

With `CCCCn1nnnc1C(c1cccc(OC)c1OC)N1CCC(n2c(=O)[nH]c3ccccc32)CC1` (configuration not stated) as the molecule, how does the fluorescence intensity read?
Its fluorescence intensity is inactive: 5500.

With `O=C(OC1CN2CCC1CC2)C1c2ccccc2C=Cc2ccccc21` (configuration not stated) as the molecule, how does the fluorescence intensity read?
The fluorescence intensity was inactive: 2330.

With `O=c1[nH]c2ccccc2n1C1CCN(C(c2cccs2)c2nnnn2C2CCCC2)CC1` (configuration not stated) as the molecule, how does the fluorescence intensity read?
Its fluorescence intensity is inactive: 5480.

For `N/C(=N\O)c1c(N)no[n+]1[O-]`, which fluorescence intensity is on record?
The fluorescence intensity was inactive: 2560.

With `COc1cccc(C(c2nnnn2C(C)(C)C)N2CCC(n3c(=O)[nH]c4ccccc43)CC2)c1OC` (configuration not stated) as the molecule, how does the fluorescence intensity read?
Its fluorescence intensity is inactive: 4340.

Which fluorescence intensity does the source give for `O=c1[nH]c2ccccc2n1C1CCN(C(c2cc3ccccc3o2)c2nnnn2C2CCCC2)CC1` (configuration not stated) here?
The fluorescence intensity was inactive: 5720.

With `CCCOc1ccc(C(=O)NCC2(N(C)C)CCCCC2)cc1` as the molecule, how does the fluorescence intensity read?
Its fluorescence intensity is inactive: 3800.

With `CC(C)(C)OC(=O)N1CCC(Nc2ccccc2)CC1` as the molecule, how does the fluorescence intensity read?
The fluorescence intensity was inactive: 3150.

Which fluorescence intensity does the source give for `NN(c1ccccc1)C1CCN(CCc2ccccc2)CC1` here?
Its fluorescence intensity is inactive: 5250.

Which fluorescence intensity does the source give for `O=C(O)C1(Nc2ccccc2)CCN(Cc2ccccc2)CC1` here?
Its fluorescence intensity is inactive: 4270.

For `CCOc1ncccc1C(=O)NCC1(N2CCOCC2)CCCCC1`, which fluorescence intensity is on record?
Its fluorescence intensity is active: 21100.

With `CN1CCC(Nc2ccc(F)c(Cl)c2)CC1` as the molecule, how does the fluorescence intensity read?
The fluorescence intensity was inactive: 3690.

For `CN1CCC(Nc2ccc(Cl)cc2)CC1`, which fluorescence intensity is on record?
Its fluorescence intensity is inactive: 4740.

For `CCC(CO)(C(=O)OC1CN2CCC1CC2)c1ccccc1` (configuration not stated), which fluorescence intensity is on record?
Its fluorescence intensity is inactive: 2480.

Which fluorescence intensity does the source give for `COc1cccc(C(=O)N(c2cc(C)cc(C)c2)C2CCN(C(=O)OC(C)(C)C)CC2)c1` here?
Its fluorescence intensity is inactive: 3610.

For `COc1cc(OC)cc(C(=O)NCC2(N3CCOCC3)CCCCC2)c1`, which fluorescence intensity is on record?
Its fluorescence intensity is inactive: 4410.

Which fluorescence intensity does the source give for `COc1cccc(C(c2nnnn2C2CCCC2)N2CCC(n3c(=O)[nH]c4ccccc43)CC2)c1OC` (configuration not stated) here?
The fluorescence intensity was inactive: 6330.

With `Cc1ccc(NC2(C#N)CCN(Cc3ccccc3)CC2)cc1` as the molecule, how does the fluorescence intensity read?
Its fluorescence intensity is inactive: 4370.

For `Fc1ccccc1NC1CCN(Cc2ccccc2)CC1`, which fluorescence intensity is on record?
Its fluorescence intensity is inactive: 9740.

For `COc1cc(OC)cc(C(=O)NCC2(N3CCCCC3)CCCCC2)c1`, which fluorescence intensity is on record?
The fluorescence intensity was inactive: 4060.

Which fluorescence intensity does the source give for `O=c1[nH]c2ccccc2n1C1CCN(C(c2ccnc3ccccc23)c2nnnn2C2CCCCC2)CC1` (configuration not stated) here?
The fluorescence intensity was inactive: 5730.

For `COc1cccc(C(c2nnnn2C2CCCCC2)N2CCC(n3c(=O)[nH]c4ccccc43)CC2)c1OC` (configuration not stated), which fluorescence intensity is on record?
The fluorescence intensity was inactive: 5350.

With `CC(=O)N(c1ccccc1)C1CCNCC1` as the molecule, how does the fluorescence intensity read?
The fluorescence intensity was inactive: 2820.

Which fluorescence intensity does the source give for `CCC(c1nnnn1C1CCCCC1)N1CCC(n2c(=O)[nH]c3ccccc32)CC1` (configuration not stated) here?
The fluorescence intensity was inactive: 3890.

With `O=C(NCC1(N2CCCCC2)CCCCC1)c1ccco1` as the molecule, how does the fluorescence intensity read?
The fluorescence intensity was inactive: 4550.

Which fluorescence intensity does the source give for `CN(C)c1ccc(C(=O)NCC2(N3CCCCC3)CCCCC2)cc1` here?
The fluorescence intensity was inactive: 3620.

For `Cn1c(=O)[nH]cc(N(CCCl)CCCl)c1=O`, which fluorescence intensity is on record?
Its fluorescence intensity is inactive: 3380.

Which fluorescence intensity does the source give for `Cc1ccccc1NC1(C#N)CCN(Cc2ccccc2)CC1` here?
The fluorescence intensity was inactive: 3960.

With `CCN1CCC(Nc2cccc(F)c2)CC1` as the molecule, how does the fluorescence intensity read?
Its fluorescence intensity is inactive: 2450.

With `COc1ccc(C(c2nnnn2C2CCCCC2)N2CCC(n3c(=O)[nH]c4ccccc43)CC2)cc1` (configuration not stated) as the molecule, how does the fluorescence intensity read?
Its fluorescence intensity is inactive: 5600.

With `CC(C)(C)n1nnnc1C(c1ccnc2ccccc12)N1CCC(n2c(=O)[nH]c3ccccc32)CC1` (configuration not stated) as the molecule, how does the fluorescence intensity read?
Its fluorescence intensity is inactive: 4250.
